Results of unrelated studies side by side (data: NIAID ChemDB).

Common to all: growth or infection tests; agent: Candida tropicalis

A number after MIC or MFC names an inhibition level or a share of isolates. ECn: concentration that inhibits the pathogen or its effect by n%. Inhibition is in % at the dose shown (toxicity tests: loss of growth or viability). An empty or dashed field is not shown. Rows are shuffled and stem from different studies. Zone: diameter of growth inhibition.

compound,cell line,read-out,read by,dose,strain or isolate,value
Cc1ccc(-n2cc(C(C)(C)O)nn2)cc1C,-,inhibition,broth dilution,2048 µg/mL,URM 1150,0%
O=C1O/C(=C\c2ccc(OCC(O)(Cn3cncn3)c3ccc(F)cc3F)cc2)C(c2ccc(F)cc2F)=C1c1ccc(Cl)cc1,-,MIC50,broth dilution,-,ATCC 750,4 µg/mL
O=C(OC(CCn1ccnc1)c1ccccc1)c1ccncc1,-,zone,agar diffusion,1000 µg,-,19 mm
CC(C)(O)c1cn(-c2ccccc2)nn1,-,inhibition,broth dilution,2048 µg/mL,URM 933,0%
c1ccc(-c2ccc(CNC(Cn3ccnc3)c3ccccc3)cc2)cc1,VERO,EC50,-,-,CBS 94 CA 44 CA 14,12 µg/mL
Brc1cnc2[nH]c(CN3CCOCC3)cc2c1,-,MIC100,-,-,ATCC 201380,31.3 µg/mL
C[C@@H](c1ncncc1F)[C@](O)(Cn1cncn1)c1ccc(F)cc1F,-,Mean MIC,-,-,38 isolates,0.1 µg/mL
O=c1[nH]c(=S)[nH]c2nc(-c3ccccn3)c(-c3ccccn3)nc12,-,zone,-,500 mg/mL,-,25 mm
OC(CNCCCOc1ccc(Br)cc1)(Cn1cncn1)c1ccc(F)cc1F,-,EC80,-,-,-,<0.125 µg/mL
O=C(/C=C/c1ccc(F)cc1)OC1CCN(CC(O)(Cn2cncn2)c2ccc(F)cc2F)CC1,-,MIC80,broth dilution,-,-,0.129 µM
C[C@@H](c1ncncc1F)[C@](O)(Cn1cncn1)c1ccc(F)cc1F,-,MIC50,broth dilution,-,-,>4 µg/mL
CCOc1ccc2nc3cc(N=C4NC(=O)/C(=C\C=C\c5ccc([N+](=O)[O-])o5)S4)ccc3c(N)c2c1,-,MFC,broth dilution,-,ATCC 8302,1000 µg/mL
Cc1ccc(/C(CCn2ccnc2)=N/OC(=O)c2ccc(Cl)cc2)cc1,-,MIC80,agar diffusion,-,-,0.3398 µg/mL
C(=C\c1ccccc1)/CNC(Cn1ccnc1)c1ccccc1,VERO,EC50,-,-,CBS 94 CA 44 CA 14,25 µg/mL
Cc1ccc(-c2c3c(N)c4c(nc3nc3c2c(C)nn3-c2ccccc2)CCCCC4)cc1,-,MIC50,broth dilution / absorbance,-,CCC 131,62.5 µg/mL
OC(Cn1cncn1)(Cn1cncn1)c1ccc(F)cc1F,-,EC50,broth dilution,-,ATCC 750,3 µM
O=C(COc1cccc2ccccc12)OC1CCN(CC(O)(Cn2cncn2)c2ccc(F)cc2F)CC1,-,MIC80,broth dilution,-,-,0.479 µM
COc1ccccc1-c1cc2cc(C)cnc2[nH]1,-,MIC100,-,-,ATCC 201380,31.3 µg/mL
C[C@H]1[C@H](O)[C@@H](C)/C=C/C=C/C=C/C=C/C=C/C=C/C=C/[C@H](O[C@@H]2O[C@H](C)[C@@H](O)[C@H](N)[C@@H]2O)C[C@@H]2O[C@](O)(C[C@@H](O)C[C@@H](O)CC[C@H](O)[C@@H](O)C[C@@H](O)CC(=O)O[C@H]1C)C[C@H](O)[C@H]2C(=O)O,-,MFC,broth dilution,-,MTCC 1406,1 µg/mL
COc1ccc(C(c2ccc(OC)cc2)n2ccnc2)cc1,-,MIC90,agar,-,-,>256 µg/mL
COc1ccc(/C=N\O)cc1,-,MFC,broth dilution,-,-,3310 µM
O=C(c1ccccc1)C(c1ccccc1)n1cncn1,-,MFC,broth dilution,-,-,128 µg/mL
CCCCCOc1ccc(-c2cc(-c3ccc(C(=O)N[C@H]4C[C@@H](O)[C@@H](O)NC(=O)[C@@H]5[C@@H](O)[C@@H](C)CN5C(=O)[C@H]([C@H](O)CC(N)=O)NC(=O)[C@H]([C@H](O)[C@@H](O)c5ccc(O)c(OS(=O)(=O)O)c5)NC(=O)[C@@H]5C[C@@H](O)CN5C(=O)[C@H]([C@@H](C)O)NC4=O)cc3)no2)cc1,-,EC50,broth dilution,-,RC-501,0.016 µg/mL
C[C@H]1[C@H](O)[C@@H](C)/C=C/C=C/C=C/C=C/C=C/C=C/C=C/[C@H](O[C@@H]2O[C@H](C)[C@@H](O)[C@H](N)[C@@H]2O)C[C@@H]2O[C@](O)(C[C@@H](O)C[C@@H](O)CC[C@H](O)[C@@H](O)C[C@@H](O)CC(=O)O[C@H]1C)C[C@H](O)[C@H]2C(=O)O,-,zone,agar diffusion,100 µg/disc,Ct1,18 mm
Clc1ccc(C(Cn2ccnc2)NCc2ccc(-c3ccccc3)cc2)cc1,VERO,EC50,-,-,CBS 94 CA 44 CA 14,12 µg/mL
CC(C)(O)c1cn(-c2cccc3ccccc23)nn1,-,inhibition,-,2048 µg/mL,URM 4262,0%
Cc1ccc(/C=N/Nc2ccnc3cc(Cl)ccc23)cc1,-,MFC,-,-,-,80 µg/mL
COc1ccc(C(c2ccc(OC)cc2)n2cncn2)cc1,-,MIC90,agar,-,-,>256 µg/mL
C[C@H]1[C@H](O)[C@@H](C)/C=C/C=C/C=C/C=C/C=C/C=C/C=C/[C@H](O[C@@H]2O[C@H](C)[C@@H](O)[C@H](N)[C@@H]2O)C[C@@H]2O[C@](O)(C[C@@H](O)C[C@@H](O)CC[C@H](O)[C@@H](O)C[C@@H](O)CC(=O)O[C@H]1C)C[C@H](O)[C@H]2C(=O)O,-,MFC,visual reading,-,MTCC 1406,1 µg/mL
Cc1cnc2[nH]c(-c3ccccc3)cc2c1,-,MIC100,-,-,ATCC 201380,31.3 µg/mL
Nc1[nH]c(=O)nc2nc(-c3ccccn3)c(-c3ccccn3)nc12,-,zone,-,250 mg/mL,-,24 mm
CC1CC2=C(O1)c1ccccc1C(=O)C2=O,-,MIC,broth dilution,-,Clinical isolate,10.1 µg/mL
O=c1[nH]cnc2nc(-c3ccccn3)c(-c3ccccn3)nc12,-,zone,-,500 mg/mL,-,30 mm
COc1ccc(-c2cc3cc(C)cnc3[nH]2)cc1,-,MIC100,-,-,ATCC 201380,15.6 µg/mL
Clc1ccc(C(c2ccccc2)n2cncn2)cc1,-,MFC,broth dilution,-,-,64 µg/mL
COc1cc(C2=C(c3ccc(F)cc3F)COC2=O)ccc1OCC(O)(Cn1cncn1)c1ccc(F)cc1F,-,MIC50,broth dilution,-,ATCC 750,8 µg/mL
CCC(C)CC(C)CCCCCCCCC(=O)N[C@H]1C[C@@H](O)[C@H](NCCN)NC(=O)[C@@H]2[C@@H](O)CCN2C(=O)[C@H]([C@H](O)CCN)NC(=O)[C@H]([C@H](O)[C@@H](O)c2ccc(O)cc2)NC(=O)[C@@H]2C[C@@H](O)CN2C(=O)[C@H]([C@@H](C)O)NC1=O,-,Mean MIC,-,-,20 isolates,0.54 µg/mL
COc1cc(/C=C2\SC(=S)NC2=O)cc(OC)c1OCC(O)(Cn1cncn1)c1ccc(F)cc1F,-,MIC50,broth dilution,-,ATCC 750,16 µg/mL
CN[C@H]1CC[C@@H](c2ccc(Cl)c(Cl)c2)c2ccccc21,-,MFC,broth dilution,-,MMRL2017,32 µg/mL
CCC(C)CC(C)CCCCCCCCC(=O)N[C@H]1C[C@@H](O)[C@H](NCCN)NC(=O)[C@@H]2[C@@H](O)CCN2C(=O)[C@H]([C@H](O)CCN)NC(=O)[C@H]([C@H](O)[C@@H](O)c2ccc(O)cc2)NC(=O)[C@@H]2C[C@@H](O)CN2C(=O)[C@H]([C@@H](C)O)NC1=O,-,MIC50,-,-,10 isolates,0.2 µg/mL
Nc1nc2nc(-c3ccccn3)c(-c3ccccn3)nc2c(=O)[nH]1,-,zone,-,250 mg/mL,-,30 mm
CCCCCCCCCCCCCCCCn1cc[n+](C)c1,-,MIC,broth dilution,-,17A,0.014 µg/mL
C[C@H]1[C@H](O)[C@@H](C)/C=C/C=C/C=C/C=C/C=C/C=C/C=C/[C@H](O[C@@H]2O[C@H](C)[C@@H](O)[C@H](N)[C@@H]2O)C[C@@H]2O[C@](O)(C[C@@H](O)C[C@@H](O)CC[C@H](O)[C@@H](O)C[C@@H](O)CC(=O)O[C@H]1C)C[C@H](O)[C@H]2C(=O)O,-,MIC90,-,-,10 isolates,0.4 µg/mL
C[C@H]1[C@H](O)[C@@H](C)/C=C/C=C/C=C/C=C/C=C/C=C/C=C/[C@H](O[C@@H]2O[C@H](C)[C@@H](O)[C@H](N)[C@@H]2O)C[C@@H]2O[C@](O)(C[C@@H](O)C[C@@H](O)CC[C@H](O)[C@@H](O)C[C@@H](O)CC(=O)O[C@H]1C)C[C@H](O)[C@H]2C(=O)O,-,MIC99,broth dilution / absorbance,-,ATCC 750,0.78 µM
FC(F)(F)c1cc(-c2cc3cc(Br)cnc3[nH]2)cc(C(F)(F)F)c1,-,MIC100,-,-,ATCC 201380,31.3 µg/mL
CSCC[C@H]1NC(=O)[C@H]2CCCN2C1=O,-,MIC100,broth dilution,-,MTCC 184,16 µg/mL
CCC(C)CC(C)CCCCCCCCC(=O)N[C@H]1C[C@@H](O)[C@H](NCCN)NC(=O)[C@@H]2[C@@H](O)CCN2C(=O)[C@H]([C@H](O)CCN)NC(=O)[C@H]([C@H](O)[C@@H](O)c2ccc(O)cc2)NC(=O)[C@@H]2C[C@@H](O)CN2C(=O)[C@H]([C@@H](C)O)NC1=O,-,MIC,broth dilution,-,8662,2 µg/mL
CCCCCCCC(=O)OC1CCN(CC(O)(Cn2cncn2)c2ccc(F)cc2F)CC1,-,MIC80,broth dilution,-,-,0.139 µM
Clc1ccc(C(c2ccccc2)n2nnc3ccccc32)cc1,-,MFC,broth dilution,-,-,>256 µg/mL
Cc1ccc(-c2c3c(N)c4c(nc3nc3c2c(C)nn3-c2ccccc2)CCC4)cc1,-,MIC50,broth dilution / absorbance,-,CCC 131,62.5 µg/mL
C[Si](C)(C)C#Cc1cnc2[nH]c(-c3ccccc3)cc2c1,-,MIC100,-,-,ATCC 201380,31.3 µg/mL
O=c1ncc2nc(-c3ccccn3)c(-c3ccccn3)nc2[nH]1,-,zone,-,500 mg/mL,-,27 mm
OC(Cn1cncn1)(Cn1cncn1)c1ccc(F)cc1F,-,MIC80,agar diffusion,-,-,>1.63 µg/mL
C=CCc1ccc(OC)c(OC)c1,-,MIC90,turbidity,-,2829,350 µg/mL
O=C(/C=C/c1cccc([N+](=O)[O-])c1)OC1CCN(CC(O)(Cn2cncn2)c2ccc(F)cc2F)CC1,-,MIC80,broth dilution,-,-,0.122 µM
CC1(C)O[C@H]2[C@H](O)[C@@H](N=[N+]=[N-])C=C(c3ccc(C=O)cc3)[C@H]2O1,-,inhibition,broth dilution / turbidity,7.8 µg/mL,C 131,0%
O=C(/C=C/c1ccc(Br)cc1)OC1CCN(CC(O)(Cn2cncn2)c2ccc(F)cc2F)CC1,-,MIC80,broth dilution,-,-,0.458 µM
Cn1c(=S)[nH]c2nc(-c3ccccn3)c(-c3ccccn3)nc2c1=O,-,zone,-,250 mg/mL,-,0 mm
Cc1ccc(C(=O)OC(CCn2ccnc2)c2ccccc2)cc1,-,zone,agar diffusion,1000 µg,-,11 mm
c1ccc(C(Cn2ccnc2)NCc2cccc3ccccc23)cc1,VERO,EC50,-,-,CBS 94 CA 44 CA 14,12 µg/mL
COc1cc(/C=N/NC(=O)c2ccc(NC(C)=O)cc2)ccc1O,-,EC50,broth dilution,-,ATCC 750,1530 µM
Brc1cnc2[nH]c(CN3CCCCC3)cc2c1,-,MIC100,-,-,ATCC 201380,31.3 µg/mL
c1ccc(C(c2ccccc2)n2cnc3ccccc32)cc1,-,MFC,broth dilution,-,-,>256 µg/mL
Fc1ccc(C(Cn2ccnc2)NCc2cccc3ccccc23)cc1,VERO,EC50,-,-,CBS 94 CA 44 CA 14,12 µg/mL
CCCC(C)(C)C(=O)OC1CCN(CC(O)(Cn2cncn2)c2ccc(F)cc2F)CC1,-,MIC80,broth dilution,-,-,0.573 µM
C[C@H]1[C@H](O)[C@@H](C)/C=C/C=C/C=C/C=C/C=C/C=C/C=C/[C@H](O[C@@H]2O[C@H](C)[C@@H](O)[C@H](N)[C@@H]2O)C[C@@H]2O[C@](O)(C[C@@H](O)C[C@@H](O)CC[C@H](O)[C@@H](O)C[C@@H](O)CC(=O)O[C@H]1C)C[C@H](O)[C@H]2C(=O)O,-,MIC50,-,-,11 isolates,1 µg/mL
O=C(OC(CCn1ccnc1)c1ccccc1)c1ccco1,-,zone,agar diffusion,1000 µg,-,17 mm
Nc1ncccc1-c1cc(Cc2ccc(COc3ccccn3)cc2)no1,-,MIC50,broth dilution,-,-,0.016 µg/mL
Cc1ccc(/C(CCn2ccnc2)=N\O)cc1,-,MIC80,agar diffusion,-,-,0.5456 µg/mL
Clc1ccc(C(Cn2ccnc2)NCc2cccc3ccccc23)c(Cl)c1,VERO,EC50,-,-,CBS 94 CA 44 CA 14,25 µg/mL
Clc1ccc(C(c2ccccc2)N2CCN(CCn3cncn3)CC2)cc1,-,MIC90,agar,-,-,32 µg/mL
O=C(O/N=C(\CCn1ccnc1)c1ccccc1)c1ccc(Cl)cc1,-,MIC80,agar diffusion,-,-,0.1767 µg/mL
O=C(/C=C/c1ccc([N+](=O)[O-])cc1)OC1CCN(CC(O)(Cn2cncn2)c2ccc(F)cc2F)CC1,-,MIC80,broth dilution,-,-,0.122 µM
O=C1N[C@H](Cc2ccccc2)C(=O)N2CCC[C@H]12,-,zone,agar diffusion / agar,32 µg/mL,MTCC 184,30 mm
COc1ccc(C(=O)O/N=C(\CCn2ccnc2)c2ccccc2)cc1,-,MIC80,agar diffusion,-,-,0.3582 µg/mL